We go through 1 substance from article PMC8725163 (Acta Crystallographica. Section D, Structural Biology, 2022).

The target in the assay is T1, BpsDsbA (oxidized) (Burkholderia pseudomallei, UniProt Q63Y08).
T1 construct: gene dsbA
As to conditions: oxidized form; 100 uM protein, 50 mM HEPES, 25 mM NaCl, 2 mM EDTA, 2% d6-DMSO, pH 6.8; cryptic pocket at Tyr110 near active site.

For bromophenoxy propanamide [compound 1], the dissociation constant (Kd) is above 2 mM.

Usually Kd stands for the free concentration of one partner at which half of the binding sites on the other are occupied at equilibrium, for simple one-to-one binding. Higher therefore signals a looser complex.
